Source: ChEMBL document CHEMBL5143506, “Design, synthesis, and mechanism study of dimerized phenylalanine derivatives as novel HIV-1 capsid inhibitors” (Eur J Med Chem, 2021)

Columns and labels:
in vitro [1] = conditions: human, liver microsomes
in vitro [2] = conditions: human, liver microsomes; remark: listed apart in the source
[3] = human, plasma, 2 h, 100 µM
MT4 = conditions: human, mt4, 120 h

COc1ccc(N(C)C(=O)[C@H](Cc2cc(F)cc(F)c2)NC(=O)CN2CCN(CC(=O)N[C@@H](Cc3cc(F)cc(F)c3)C(=O)N(C)c3ccc(OC)cc3)C(=O)C2)cc1
remaining at 1 h, 100 µM (in vitro [1]): 0% | remaining at 1 h, 100 µM (in vitro [2]): 102% | Stability [3]: 95% | CC50 (MT4): 14.5 µM
